Data taken from paper PMC6017328, “Tetrasubstituted Imidazolium Salts as Potent Antiparasitic Agents against African and American Trypanosomiases” (Molecules : A Journal of Synthetic Chemistry and Natural …, 2018).

Legend:
[1] = system: T. cruzi epimastigotes (CL Brener stain); test: T. cruzi culturing and evaluation of trypanocidal activity (resazurin); format: cell-based, Trypanosoma cruzi; conditions: selectivity index; ratio of mammalian cell (L6) and parasite EC50 values
[2] = system: Bloodstream form T. brucei (strain 221); test: T. brucei culturing and evaluation of trypanocidal activity (resazurin); format: cell-based, Trypanosoma brucei; conditions: selectivity index; ratio of mammalian cell (L6) and parasite EC50 values
Protocol: Bloodstream form T. brucei (strain 221) were grown as described previously. […] Logarithmically growing T. brucei were diluted to 2.5 × 10^4 mL^−1 and aliquoted into 96-well plates. Then, compounds were added at a range of concentrations and the plates incubated at 37 °C. Each compound was tested in triplicate. Resazurin was added after 48 h and the plates incubated for a further 16 h. The plates were then read in a Spectramax plate reader. Results were analyzed using GraphPad Prism.

SMILES | SI (T. cruzi) [1] | SI (T. brucei) [2]
Cc1ccc(-n2c[n+](C(C)(C)C)c(Cc3ccccc3)c2-c2ccccc2)cc1 [Compound 1a] | 18 | 188
Cc1ccc(-n2c[n+](CC(=O)[O-])c(Cc3ccccc3)c2-c2ccccc2)cc1 [Compound 1e] |  | > 24
COc1ccc(-n2c[n+](C(C)(C)C)c(Cc3ccc(C)cc3)c2-c2ccc(Cl)cc2)cc1 [Compound 1c] | 5.6 | 54
Cc1ccc(-n2c[n+](-c3ccc4ccccc4c3)c(Cc3ccccc3)c2-c2ccc(Cl)cc2)cc1 [Compound 1d] | 7.6 | 56
COc1ccc(-n2c[n+](-c3ccc(OC)cc3)c(Cc3ccccc3)c2-c2ccc(C)cc2)cc1 [Compound 1b] | 10 | 118
